PubChem BioAssay AID1224833, University of Georgia, 2016

Screen: 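Host factors restraining rotavirus as candidate antiviral genes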 (primary screen)
System: monkey MA104 kidney cells
Reagent: siRNA pool against human genes, 50 nM
Time to read-out: 48 h knock-down before infection; read 24 h after infection
Challenge: infection with rotavirus strain RV3 two days after transfection; infectious dose for this stage not given
Measured: 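z-score of rotavirus antigen signal per well, from a fluorescent immunoassay, relative to non-targeting control wells on the same plate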
Scale: z-score vs non-targeting control: higher = more rotavirus replication than with non-targeting control
Hit rule: In these data the active calls have z-score vs non-targeting control at about -1 or lower, or at about 1 or higher
Calls: active = z-score beyond 1 either way; inactive = z-score within 1 of zero
The whole screen tested about 12,000 reagents; below is a part drawn at random. About 5,600 of all reagents (46%) were called active. 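Active calls cover z-scores past 1 in both directions, so they include lowered as well as raised rotavirus replication.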 No sequences are given here.

| Gene | z-score vs non-targeting control | outcome |
| --- | --- | --- |
| SCGB3A1 | -0.327 | inactive |
| ZNF256 | -0.945 | inactive |
| C12orf60 | -0.915 | inactive |
| TNFRSF9 | 0.559 | inactive |
| ACTRT3 | -0.376 | inactive |
| C9orf85 | -0.635 | inactive |
| TULP2 | -2.07 | active |
| TCEA3 | -0.943 | inactive |
| LRP2 | -1.8 | active |
| ODF2L | 0.631 | inactive |
| EXOC5 | -1.43 | active |
| VKORC1 | 0.711 | inactive |
| ESAM | 1.03 | active |
| CEP20 | 0.665 | inactive |
| AGT | 0.537 | inactive |
| PEX3 | -0.285 | inactive |
| RUBCNL | 0.747 | inactive |
| TMEM138 | -1.5 | active |
| TUT7 | -1.87 | active |
| ZNF624 | -0.44 | inactive |
| TLR1 | 0.621 | inactive |
| CIROZ | 1.21 | active |
| ATP5MK | -0.768 | inactive |
| METTL27 | 0.988 | inactive |
| CD151 | 1.04 | active |
| WNT8B | 0.263 | inactive |

A run of entries from the list above, as a working copy:
| Gene | z-score vs non-targeting control | outcome |
| --- | --- | --- |
| CEP20 | 0.665 | inactive |
| AGT | 0.537 | inactive |
| PEX3 | -0.285 | inactive |
| RUBCNL | 0.747 | inactive |
| TMEM138 | -1.5 | active |
| TUT7 | -1.87 | active |
| ZNF624 | -0.44 | inactive |
| TLR1 | 0.621 | inactive |

Further reagents:
| Gene | z-score vs non-targeting control | outcome |
| --- | --- | --- |
| NDUFAF3 | 2.89 | active |
| PEG3 | -0.942 | inactive |
| LDLRAD1 | 1.72 | active |
| SH3BP2 | 2.12 | active |
| NUTM1 | -1.46 | active |
| AZIN2 | -2.04 | active |
| VAMP1 | -0.0377 | inactive |
| FAM131B | 0.788 | inactive |
| SIN3A | -1.03 | active |
| AP2B1 | -1.14 | active |
| NREP | -0.618 | inactive |
| CIZ1 | -1.97 | active |
| PTGES2 | -1.22 | active |
| ITGB1BP2 | 1.18 | active |
| UCN2 | -0.798 | inactive |
| TROAP | 1.46 | active |
| CGB5 | -2.08 | active |
| UGGT2 | -0.959 | inactive |
| NEB | -0.659 | inactive |
